The source of these data is article PMC9271048, “Probing strigolactone perception mechanisms with rationally designed small-molecule agonists stimulating germination of root parasitic weeds” (Nature Communications, 2022).

The chains behind the UniProt entries cited, without tags or fusion partners. Residues count along the entry.
UniProt A0A0M3PNA2, 1-271: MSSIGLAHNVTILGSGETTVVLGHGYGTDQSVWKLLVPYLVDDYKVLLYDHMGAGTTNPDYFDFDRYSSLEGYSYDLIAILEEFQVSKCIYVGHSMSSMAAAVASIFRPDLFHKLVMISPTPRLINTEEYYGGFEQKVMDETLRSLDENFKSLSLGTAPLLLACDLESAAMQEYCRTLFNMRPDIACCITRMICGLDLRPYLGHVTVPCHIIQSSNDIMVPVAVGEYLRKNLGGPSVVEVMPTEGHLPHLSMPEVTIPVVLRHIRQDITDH

Experiment [1] relates to P. aegyptiaca seeds. Put plainly: P. aegyptiaca seed germination assay. As to conditions: Supplementary Table 1; compounds tested at 10 μM; means ± SD, n = 3. The protocol: P. aegyptiaca seeds were harvested from Xinjiang province, China in 2017. The seeds were surface sterilized using 1% NaClO solution for 2 min and then washed with distilled water six times. For seed germination assay, about 20 pieces of glass fiber-filter paper discs (15 mm diameter, Whatman GF/B) were placed separately on two layers of filter papers (9 cm diameter, Whatman) in a Petri dish. Five milliliters of distilled water was added to each Petri dish to wet the papers. Approximately 40–90 sterilized seeds were spread onto each glass fiber-filter paper disc. After the seeds were conditioned in the dark at 25 °C for 4 days[48], glass fiber-filter paper discs were blotted dry on filter papers (9 cm) and transferred to the wells of 24-well cell culture plates. The testing compounds were dissolved in acetone and diluted with H2O (VH2O/Vacetone = 999/1) just before use[49]. rac-GR24 and 1‰ acetone solution were used as positive and negative controls, respectively. One hundred microliters of the test solution was added to each well of the plates, and all treatments were performed in three biological repeats. The plates were sealed and incubated in the dark at 25 °C for a week. The experiments were performed at least three times. The germinated seeds were observed by using an electronic magnifier at ×20 magnification.

Experiment [2] deals with T1, ShHTL7 (Striga hermonthica, UniProt A0A0M3PNA2). As to conditions: read-out: KD (SPR); recombinant ShHTL7 immobilized on CM5 chip, 25 °C.
For experiment [3], the target named is T1, ShHTL7. The experiment is described as follows: Competitive inhibition of ShHTL7 with Yoshimulactone Green (YLG) as substrate. As to conditions: read-out: IC50 (Supplementary Table 1); YLG used as the substrate; means ± SD, n = 3. The protocol:
Based on the structural feature of the lead compound 2h, we selected three regions to perform further modification (Supplementary Fig. 6), to try to further improve bioactivity. Insertion of a carbonyl group between the bicyclo[2.2.1]hept-5-en-2-yl group and the piperazine ring was detrimental to binding affinity (Supplementary Fig. 6, region A). Removal of an oxygen atom in region B was found unfavorable to binding affinity as well. Therefore, we focused on modifying the benzene ring (region C) for 2h. A series of compounds with different groups at region C was synthesized (Supplementary Scheme 1). […] The KD values of 3d, 3e, 3f, and 3g were 1.86, 0.65, 0.18, and 0.47 μM, respectively. […] As SPR just measures the binding ability, another independent assay by using Yoshimulactone Green (YLG) as the fluorescent substrate was performed to determine the half-maximal inhibitory concentration (IC50) of these compounds against ShHTL7[22].
According to the reported methods[22],[28], the competitive inhibition of SL receptors (ShHTLs, AtD14, and PaKAI2s) activity by small molecules was performed by using YLG as the substrate at 25 °C. The excitation and emission wavelengths of YLG are 480 and 520 nm, respectively. We used a fluorescence spectrophotometer (CARY Eclipse) to detect the fluorescence intensity change of YLG during the enzymatic hydrolysis assay process. All the testing compounds and YLG were dissolved in DMSO and prepared as stock solutions just before use. A total of 100 μL reaction mixture, which consisted of 4–6 μg recombinant proteins, 3 μM YLG in reaction buffer (100 mM HEPES, 150 mM NaCl, pH 7.0), and 0.0256–400 μM compounds were added to a 96-well black plate (Thermo). The changes of fluorescence at 520 nm of each well were recorded every 1 min for 30 min. Using the reaction mixture without adding enzyme and tested compounds as the background control. After subtracting the background hydrolysis, a linear fluorescence increase in 8 min was used for further inspection. The IC50 values were determined via fitting relative inhibition percentages with the varying concentrations of compounds in Microsoft Excel.

By Kd is commonly meant the concentration at which binding is half-saturated. By IC50 is commonly meant the concentration that gives 50% inhibition. `Cc1cc(Br)ccc1OCC(=O)N1CCN(CC2CC3C=CC2C3)CC1` (single isomer, unassigned) [(2S)-3f]: in experiment [1], the “P. aegyptiaca germination(%)” value was determined as 6.7±3.4%. Further, in experiment [2], the Kd is 1.28 nM. In experiment [3], the IC50 worked out at 6400 nM.
Consider `O=C(COc1c(F)c(F)c(F)c(F)c1F)N1CCN(CC2CC3C=CC2C3)CC1` (single isomer, unassigned) [(2R)-3g], for which, in experiment [1], the “P. aegyptiaca germination(%)” value worked out at 9.1%. The IC50 in experiment [3] worked out at 130 nM.
As to `Cc1cc(Br)ccc1OCC(=O)N1CCN(CC2CC3C=CC2C3)CC1` (single isomer, unassigned) [(2R)-3f], the “P. aegyptiaca germination(%)” value in experiment [1] is recorded as 15.1%. The Kd in experiment [2] was 480 nM. The IC50 in experiment [3] was found to be 5670 nM.
As for `O=C(COc1c(F)c(F)c(F)c(F)c1F)N1CCN(CC2CC3C=CC2C3)CC1` (single isomer, unassigned) [(2S)-3g], the “P. aegyptiaca germination(%)” value in experiment [1] is 9.6%. Also, the IC50 in experiment [3] is 2040 nM.
